A mixed list of measured activities; the numbers were collected in NIAID ChemDB.

An empty or dashed field is not shown. ECn: concentration that inhibits the pathogen or its effect by n%. MIC50, MIC90 and the like: level of inhibition, or share of isolates inhibited. Lines come from different laboratories, so protocols vary. Inhibition is in % at the dose shown (toxicity tests: loss of growth or viability). ICn is the concentration giving n% inhibition. Fold resistance: result on the changed form divided by that on wild type.

compound	target	changes	test	method	measure	species	strain	cells	tested at	result
COc1cc(C[C@H](C)[C@H](C)Cc2ccc(O)c(O)c2)ccc1O			culture	broth dilution	MIC50	Candida albicans	CCC 130-2000			62.5 µg/mL
CC(C)=CCOc1cc(NC(=S)c2ccoc2C)ccc1Cl	Reverse transcriptase	RT-N137Q	target	nucleotide incorporation / radiometric	IC50	HIV				0.027 µM
O=C(Nc1nnc(NCCC(c2ccccc2)c2ccccc2)s1)c1ccc(F)cc1F	Polymerase		target		IC50	Human cytomegalovirus				>25 µM
CC(C)C(=O)N1C[C@H](CN2CCC(c3ccccc3)CC2)[C@@H](c2ccccc2)C1	CCR5	CCR5-Y37A	target	radiometric	fold resistance					1.5
CCCCCCCC/C=C/CCCCCCCC(=O)Nc1nnc(NC2CCc3ccccc32)s1	Polymerase		target		IC50	Human cytomegalovirus				>25 µM
CCO/N=C/c1ccc(OCCC2CCN(c3ccc(C)nn3)CC2)cc1			culture	neutral red	EC50	Rhinovirus	11757 (ICAM-1 receptor group 16)	KB		0.008 µM
Nc1nc2c(ncn2[C@H]2CC[C@@H](COP(=O)(O)OP(=O)(O)OP(=O)(O)O)O2)c(=O)[nH]1	Reverse transcriptase	RT-N137A	target	nucleotide incorporation / radiometric	fold resistance	HIV				4
O=C(Nc1nnc(NCCNc2ccccc2)s1)c1ccc([N+](=O)[O-])o1	Polymerase		target		IC50	Human cytomegalovirus				>25 µM
Cc1cn([C@@H]2O[C@H](CO[Si](C)(C)C(C)(C)C)C3(OS(=O)(=O)C=C3N)[C@H]2O[Si](C)(C)C(C)(C)C)c(=O)n(C)c1=O	Reverse transcriptase	RT-N137Y	target	nucleotide incorporation / radiometric	fold resistance	HIV				0.19
CC(C)=CCN1Cc2cc(Cl)cc3[nH]c(=S)n(c23)C[C@@H]1C		RT-L74V A98G	culture		EC95	HIV-1		MT-4		>3 µM
C#CC[C@@H](C(=O)N[C@H](/C=C/C(=O)OCC)C[C@@H]1CCNC1=O)n1cccc(NC(=O)c2cc(C)on2)c1=O			culture	cytopathic effect / XTT	EC50	Rhinovirus	Clinical isolate T (serotype 16)	H1-HELA		0.079 µM
CCOc1ccc2ccccc2c1C(=O)Nc1nnc(NCCC(c2ccccc2)c2ccccc2)s1	Polymerase		target		IC50	Human cytomegalovirus				<25 µM
O=C(C1CCCCC1)N1C[C@H](CN2CCC(c3ccccc3)CC2)[C@@H](c2ccccc2)C1	CCR5	CCR5-Y37A	target	radiometric	IC50					0.13 µM
O=C(Nc1nnc(NC2CCN(Cc3ccccc3)CC2)s1)c1c(Cl)cccc1Cl	Polymerase		target		IC50	Human cytomegalovirus				<25 µM
O=C(c1ccccc1)N1C[C@H](CN2CCC(c3ccccc3)CC2)[C@@H](c2ccccc2)C1	CCR5		target	radiometric	IC50					0.01 µM
COc1cc2c(c(OC)c1OC)-c1ccc(OC)c(=O)cc1[C@@H](NC(C)=O)CC2			culture		inhibition	Encephalitozoon intestinalis		RK-13	1 µg/mL	84.7%

Again, the opening 2 rows:

compound,target,changes,test,method,measure,species,strain,cells,tested at,result
COc1cc(C[C@H](C)[C@H](C)Cc2ccc(O)c(O)c2)ccc1O,,,culture,broth dilution,MIC50,Candida albicans,CCC 130-2000,,,62.5 µg/mL
CC(C)=CCOc1cc(NC(=S)c2ccoc2C)ccc1Cl,Reverse transcriptase,RT-N137Q,target,nucleotide incorporation / radiometric,IC50,HIV,,,,0.027 µM